Measured values from several laboratories, pooled; numbers as filed in NIAID ChemDB.

Common to all: tests in culture; organism: Mycobacterium tuberculosis

Inhibition is in % at the dose shown (toxicity tests: loss of growth or viability). ECn is the concentration giving n% inhibition of infection, replication or growth. Rows are shuffled and stem from different studies. Blank or dashed fields: not listed here. MIC bound comes from a single tested concentration. MIC50, MIC90 and the like: level of inhibition, or share of isolates inhibited.

structure	tested at	measure	read by	mutations	strain or isolate	value
CCCn1c(=O)c2c3c(cnc2n(CCC)c1=O)C(=O)C1=C(C3=O)C2CCC1C2		EC99	luminescence	pSMT1 luciferase reporter plasmid	H37Rv	6.23 µg/mL
O=c1cc(-c2cccc(Cl)c2)oc2ccccc12		MIC			H37Rv	>12.5 µg/mL
C=C[C@](C)(Cl)[C@@H](Br)/C=C/[C@](C)(Cl)CBr		MIC			H37Rv	3.13 µg/mL
Cc1[nH]n(CCO)c(=O)c1N=Nc1ccc(-c2n[nH]c(=O)n2-c2ccccc2)cc1		EC50			H37Rv	>12.5 µg/mL
c1coc(-c2ncnc3c2ncn3C2CCOCC2)c1		EC50			H37Rv	>6.25 µg/mL
Cc1ccc(C)c2c(O)c(C3=Nc4ccccc4NC(c4ccc(Cl)cc4)C3)c(=O)oc12		MIC	resazurin		H37Rv	>6.25 µg/mL
CCN(CC)Cc1cc(Nc2nc(/C=C/c3ccc(Cl)cc3)nc(Cl)c2-c2ccc(Cl)cc2)ccc1O	6.25 µg/mL	inhibition	resazurin		H37Rv	99%
COc1ccc(-c2oc3ccccc3c(=O)c2Br)cc1		MIC			H37Rv	>12.5 µg/mL
O=c1oc2ccccc2c(O)c1C1=CC(c2ccccc2O)Sc2ccccc2N1		MIC	resazurin		H37Rv	<6.25 µg/mL
Cc1ccc(NC(=S)SCc2ccc(Cl)cc2)cc1Cl	12.5 µg/mL	inhibition	BACTEC		H37Rv	87%
Cc1ccc(C2=NN(C(=O)c3ccncc3)C(O)(C(Cl)(Cl)Cl)C2)cc1		MIC			RGH101	>252 µM
CC(=O)Oc1ccccc1C(=O)Nc1ncc([N+](=O)[O-])s1		MIC	visual reading		ND spoligotype 106	20 µg/mL
C/C=C(/C)C(=O)OC1CC(C)(C)CC2C3=CCC4C5(C)CC[C@H](O)C(C)(C)C5CC[C@@]4(C)[C@]3(C)CC[C@@]12C(=O)O		MIC			H37Rv (ethambutol-resistant)	50 µg/mL
COC(=O)C[C@@](O)(CCC(C)(C)O)C(=O)O[C@@H]1C(OC)=C[C@]23CCCN2CCc2cc4c(cc2[C@@H]13)OCO4		MIC bound	BACTEC		H37Rv	>12.5 µg/mL
CC(=O)Nc1ccc(S(=O)(=O)c2ccc(Nc3ccnc4ccc(C)cc34)cc2)cc1		MIC			Strain 1 (MDR)	1 µg/mL
O=C(c1ccccn1)c1nnn2ccccc12		MIC bound	resazurin		H37Rv	>6.25 µg/mL
C#C[C@@]12O[C@]1(C=O)[C@@H]1[C@@H](O)C[C@H]3C(C)(C)CCC[C@]3(C)[C@H]1CC2=O		MIC			Sensitive strains	25 µg/mL
CCCCCCn1c(=O)c2c3c(cnc2n(CCCCCC)c1=O)C(=O)C1=C(C3=O)C2CCC1CC2		EC90	luminescence	pSMT1 luciferase reporter plasmid	H37Rv	6.13 µg/mL
CC(=S)N1CCCC[C@H]1[C@@H](O)c1cc(C(F)(F)F)nc2c(C(F)(F)F)cccc12		MIC				>128 µM
CCOC(=O)/C(N=Nc1ccc(-c2n[nH]c(=S)n2-c2ccccc2)cc1)=C(\C)O	12.5 µg/mL	inhibition			H37Rv	0%
c1ccc(Cn2cnc3c(-c4ccccc4)ncnc32)cc1		EC50			H37Rv	<6.25 µg/mL
CC(C)(C)OC(=O)N1CCCC[C@H]1[C@@H](O)c1cc(C(F)(F)F)nc2c(C(F)(F)F)cccc12		MIC				31 µM
O=C1/C(=c2\c3ccccc3n3c(=O)c4ccccc4nc23)Nc2ccccc21	12.5 µg/mL	inhibition	BACTEC		H37Rv	34%
Cc1ccc2oc(=O)c(C3=Nc4ccccc4NC(c4ccc(O)cc4)C3)c(O)c2c1		MIC	resazurin		H37Rv	>6.25 µg/mL
ONc1cc(C(F)(F)F)nc2c(C(F)(F)F)cccc12		MIC				>128 µM
O=C1C(c2ccc(Cl)cc2)=[N+]([O-])c2cc3c(cc21)OCO3		EC50	MTT		H37Rv	14.6 µM
COc1ccc(/C=C/C(=O)c2cc(I)ccc2O)cc1		MIC			H37Rv	>12.5 µg/mL
COCC12CCC(OC)C34C5CC6(O)C(OC)CC(OC(C)=O)(C5C6OC(=O)c5ccccc5)C(C(OC)C13)C4N(C)C2		MIC	BACTEC		H37Rv	≥12.8 µg/mL
Clc1nc(-c2cccs2)c2ncn(C3CCOCC3)c2n1		EC50			H37Rv	>6.25 µg/mL
C/C=C/C=C/C1O[C@@](O)([C@H](CC)C(=O)NC/C=C/C=C(\C)[C@H](OC)C(C)[C@H]2O[C@@H](/C=C/C=C/C=C(\C)C(=O)c3c(O)ccn(C)c3=O)[C@@H](O)[C@H]2O)C(O)C(O)C1(C)C		MIC bound	BACTEC		H37Rv	>12.5 µg/mL
O=C(NNc1cc(-c2ccccc2)nc2ccccc12)c1ccncc1		MIC			Strain 2 (MDR)	1 µg/mL
CC(=O)Nc1cccc(-c2nnc(C3CCCC(NC(C)=O)C3)nn2)c1		MIC bound	BACTEC		H37Rv	>12.5 µg/mL
CC(=O)n1nc(-c2ccc(N=Nc3c(C)[nH]n(-c4ccccc4)c3=O)cc2)n(-c2ccccc2)c1=S	12.5 µg/mL	inhibition			H37Rv	51%
COc1cccc2c(NC(=S)Nc3cccc([N+](=O)[O-])c3)ccnc12		MIC			Strain 1 (MDR)	1 µg/mL
COc1cccc(C2C=C(c3c(O)c4ccccc4oc3=O)Nc3ccccc3S2)c1		MIC	resazurin		H37Rv	<6.25 µg/mL
O=C(c1ccncc1)N1N=C(c2cccs2)CC1(O)C(F)(F)F		MIC			RGH102	>293 µM
Cc1[nH]n(CCO)c(=O)c1N=Nc1ccc(C(=O)N/N=C/c2ccc(F)cc2)cc1	12.5 µg/mL	inhibition			H37Rv	0%
NC(=O)C1CON=C1c1ccc([N+](=O)[O-])o1		MIC				1 µg/mL
CN(N=O)C(=O)NC1C(CO)OC2OC(C)(C)OC21		MIC bound	BACTEC		H37Rv	>12.5 µg/mL
O=[N+]([O-])c1ccc(C2=NOC3(N4CCCC4)CCCCC23)o1		MIC				0.01 µg/mL
CCn1c(=O)c2c3c(cnc2n(CC)c1=O)C(=O)C1=C(C3=O)C2CCC1C2		EC90	luminescence	pSMT1 luciferase reporter plasmid	H37Rv	5.32 µg/mL
CCN(CC)C1CC(c2ccc([N+](=O)[O-])o2)=NO1		MIC				0.1 µg/mL
C[C@@H]1[C@@H](C)NCCN1C(=S)S		MIC bound	BACTEC		H37Rv	>12.5 µg/mL
O=c1cc(-c2ccccc2O)oc2ccccc12		MIC			H37Rv	>12.5 µg/mL
CO[C@H]1/C=C/O[C@@]2(C)Oc3c(C)c(O)c4c(O)c(c(/C=N/N5CCN(C)CC5)c(O)c4c3C2=O)NC(=O)/C(C)=C\C=C\[C@H](C)[C@H](O)[C@@H](C)[C@@H](O)[C@@H](C)[C@H](OC(C)=O)[C@@H]1C		MIC	resazurin	Clinically resistant strain	FJ05060	0.5 µg/mL
CN(C)c1ccc(/C=C/C(=O)c2ccccn2)cc1		MIC			H37Rv	>12.5 µg/mL
C=CCn1c(-c2ccc(N=Nc3c(C)[nH]n(CCO)c3=O)cc2)n[nH]c1=S		EC50			H37Rv	>12.5 µg/mL
Cc1cccc2c(=O)c3cccc([C@H](C)C(=O)O)c3oc12	12.5 µg/mL	inhibition	BACTEC		H37Rv	0%
CCCC1=[N+]([O-])c2ccccc2C1=O		MIC	MTT		H37Rv	100 µM
NC(=S)NNC(=O)c1ccncc1		MIC			Strain 1 (MDR)	1 µg/mL
CCCCCN(CCCCC)CC(=O)OCC1(C)CCCC2(C)C3CCC(C(C)C)=CC3=CCC12		MIC bound	BACTEC		H37Rv	>12.5 µg/mL
CC1COc2c(N3CCN(C)CC3)c(F)cc3c(=O)c(C(=O)O)cn1c23		MIC			900201	0.5 µg/mL
Cc1[nH]n(-c2ccccc2)c(=O)c1N=Nc1ccc(-c2n[nH]c(=S)n2-c2ccccc2)cc1		MIC			H37Rv	>12.5 µg/mL
Cc1ccc2oc(=O)c(C3=Nc4ccccc4NC(c4cccc(O)c4)C3)c(O)c2c1		MIC	resazurin		H37Rv	>6.25 µg/mL
O=S1(c2ccccc2)=NC(=S)Nc2ccccc21		MIC bound	BACTEC		H37Rv	>12.5 µg/mL
CC(=O)Nc1ccc(S(=O)(=O)c2ccc(Nc3ccnc4ccc(Cl)cc34)cc2)cc1		MIC			Strain 1 (MDR)	1 µg/mL
O=C1C=[N+]([O-])c2ccccc21		MIC	MTT		H37Rv	12.5 µM
O=C(CNc1cccc(Cl)c1)Nn1c(-c2ccccc2)nc2ccccc2c1=O	12.5 µg/mL	inhibition	BACTEC		H37Rv	46%
CCCn1c(=O)c2c3c(cnc2n(CCC)c1=O)C(=O)C1=C(C3=O)C2CCC1CC2		EC90	luminescence	pSMT1 luciferase reporter plasmid	H37Rv	5.98 µg/mL
O=C(c1ccncc1)N1N=CCC1(O)C(F)(F)F		MIC			H37Rv	0.77 µM
Cc1ccc(Nc2ccc(Nc3ccc(C)cc3S(=O)(=O)O)c3c2C(=O)c2cccc(O)c2C3=O)c(S(=O)(=O)O)c1	12.5 µg/mL	inhibition	BACTEC		H37Rv	-4%
CCCCn1c(=O)c2c3c(cnc2n(CCCC)c1=O)C(=O)C1=C(C3=O)C2CCC1CC2		EC90	luminescence	pSMT1 luciferase reporter plasmid	H37Rv	5.2 µg/mL
O=[N+]([O-])c1ccc(C2=NOC3(N4CCCCC4)CCCCC23)o1		MIC				0.01 µg/mL
COc1ccc(C2CC(c3c(O)c4c(C)ccc(C)c4oc3=O)=Nc3ccccc3N2)cc1		MIC	resazurin		H37Rv	>6.25 µg/mL
FC(F)(F)c1cc(NCc2ccccn2)c2cccc(C(F)(F)F)c2n1		MIC				66 µM
O=C(c1ccncc1)N1N=C(c2ccccc2)CC1(O)C(F)(F)F		MIC			RGH103	>298.5 µM
O[C@@H](c1cc(C(F)(F)F)nc2c(C(F)(F)F)cccc12)[C@@H]1CCCCN1Cc1ccccc1		MIC				8 µM
CC[C@@H](CO)NCCN[C@@H](CC)CO		MIC			N128	16 µg/mL
CC1(C)C2CCC13CS(=O)(=O)N1OC13C(=O)O2	12.5 µg/mL	inhibition	BACTEC		H37Rv	9%
O=C1C(c2ccc(Cl)cc2)=[N+]([O-])c2ccccc21		EC50	MTT		H37Rv	7.9 µM
OC[C@H]1O[C@@H](n2cnc3c(-c4ccccc4)ncnc32)[C@H](O)[C@@H]1O		EC50			H37Rv	>6.25 µg/mL
COc1ccc(-c2cc(C(F)(F)F)nc3c(C(F)(F)F)cccc23)cc1		MIC				118 µM
O=C1C(c2ccccn2)=[N+]([O-])c2ccccc21		EC50	MTT		H37Rv	17 µM
c1csc(-c2ncnc3nc[nH]c23)c1		EC50			H37Rv	>6.25 µg/mL
Cc1c(OCC(F)(F)F)ccnc1CSc1nc2ccccc2[nH]1		MIC90	resazurin		H37Rv	1.13 µM
CCCCc1c(C#N)c(=O)n2c(N)c(C#N)cnc2c1SC		MIC bound	BACTEC		H37Rv	>6.25 µg/mL
O=c1oc2ccccc2c(O)c1C1=CC(c2cccc(O)c2)Sc2ccccc2N1		MIC	resazurin		H37Rv	<6.25 µg/mL
CC(C)n1c(=O)c2c3c(cnc2n(C(C)C)c1=O)C(=O)C1=C(C3=O)C2CCC1C2		EC90	luminescence	pSMT1 luciferase reporter plasmid	H37Rv	1.5 µg/mL
CCn1cc(C(=O)O)c(=O)c2cc(F)c(N3CCNCC3)nc21		MIC			H37Rv	12.5 µg/mL
Cc1[nH][nH]c(=O)c1N=Nc1ccc(-c2n[nH]c(=S)o2)cc1		EC50			H37Rv	>12.5 µg/mL
Cn1c(=O)nc2n(-c3cccc(F)c3)c3ccccc3nc-2c1=O	12.5 µg/mL	inhibition	BACTEC		H37Rv	39%
CO[C@H]1/C=C/O[C@@]2(C)Oc3c(C)c(O)c4c(O)c(c(/C=N/N5CCN(C)CC5)c(O)c4c3C2=O)NC(=O)/C(C)=C\C=C\[C@H](C)[C@H](O)[C@@H](C)[C@@H](O)[C@@H](C)[C@H](OC(C)=O)[C@@H]1C		MIC	resazurin		SIT54	3 µg/mL
Cc1nnc(S(=O)(=O)c2ccc(N=Nc3c(N)nc(N)nc3N)cc2)s1		MIC bound	BACTEC		H37Rv	>12.5 µg/mL
CC(=O)NC[C@H]1CN(c2ccc(N3CCN(c4ccc([N+](=O)[O-])s4)CC3)c(F)c2)C(=O)O1		MIC			PC 4782	0.125 µg/mL

Repeating the first 8 entries:

structure,tested at,measure,read by,mutations,strain or isolate,value
CCCn1c(=O)c2c3c(cnc2n(CCC)c1=O)C(=O)C1=C(C3=O)C2CCC1C2,,EC99,luminescence,pSMT1 luciferase reporter plasmid,H37Rv,6.23 µg/mL
O=c1cc(-c2cccc(Cl)c2)oc2ccccc12,,MIC,,,H37Rv,>12.5 µg/mL
C=C[C@](C)(Cl)[C@@H](Br)/C=C/[C@](C)(Cl)CBr,,MIC,,,H37Rv,3.13 µg/mL
Cc1[nH]n(CCO)c(=O)c1N=Nc1ccc(-c2n[nH]c(=O)n2-c2ccccc2)cc1,,EC50,,,H37Rv,>12.5 µg/mL
c1coc(-c2ncnc3c2ncn3C2CCOCC2)c1,,EC50,,,H37Rv,>6.25 µg/mL
Cc1ccc(C)c2c(O)c(C3=Nc4ccccc4NC(c4ccc(Cl)cc4)C3)c(=O)oc12,,MIC,resazurin,,H37Rv,>6.25 µg/mL
CCN(CC)Cc1cc(Nc2nc(/C=C/c3ccc(Cl)cc3)nc(Cl)c2-c2ccc(Cl)cc2)ccc1O,6.25 µg/mL,inhibition,resazurin,,H37Rv,99%
COc1ccc(-c2oc3ccccc3c(=O)c2Br)cc1,,MIC,,,H37Rv,>12.5 µg/mL